In ChEMBL document CHEMBL3120092, “Discovery of GS-9669, a thumb site II non-nucleoside inhibitor of NS5B for the treatment of genotype 1 chronic hepatitis C infection” (J Med Chem, 2014):

Key:
Huh-7 = assay: Cytotoxicity against human HuH7 cells after 3 days by Cell Titre Glo assay; type: cell-based; conditions: huh-7, 72 h
Hepatitis C virus [1] = assay: Antiviral activity against Hepatitis C virus H77 genotype 1a infected in human HuH7 cells assessed as intrinsic antiviral potency after 72 hrs by luciferase reporter gene assay; conditions: huh-7; strain genotype 1a H77, Huh-7
Hepatitis C virus [2] = assay: Antiviral activity against Hepatitis C virus H77 genotype 1a infected in human HuH7 cells assessed as observed antiviral potency after 72 hrs by luciferase reporter gene assay; conditions: huh-7; strain genotype 1a H77, Huh-7
Hepatitis C virus [3] = assay: Antiviral activity against Hepatitis C virus Con1 genotype 1b infected in human HuH7 cells after 72 hrs by luciferase reporter gene assay; conditions: huh-7; strain isolate Con1, Huh-7
[4] = Fraction unbound in cell culture medium at 2 uM at pH 7.4 by equilibrium dialysis method; conditions: pH 7.4, 2 µM
MT4 = assay: Cytotoxicity against human MT4 cells after 5 days by Cell Titre Glo assay; type: cell-based; conditions: mt4, 120 h

CN1CCC(N(c2cc(C#CC(C)(C)C)sc2C(=O)O)C(=O)[C@H]2CC[C@H](C)CC2)CC1
CC50 (Huh-7): ≥ 20000 nM
EC50 (Hepatitis C virus [1]): 11 nM
EC50 (Hepatitis C virus [2]): 15 nM
EC50 (Hepatitis C virus [3]): 2 nM
Fu [4]: 0.71
CC50 (MT4): > 20000 nM

Only a part of the results on these compounds is given; other tests are left out.
